From paper PMC11952669 (Research Square, 2025)

Target: Biotinylated HsItaly2011 RBD (residues 388–589) (bat MERSr-CoV HsItaly2011 (from Hypsugo savii))
Assay: BLI

## R.nor ACE2 ectodomain (residues 1–741), dimeric (from UniProt Q5EGZ1 18-741) (receptor)
  Kd: 121 nM
